Results of unrelated studies side by side (data: NIAID ChemDB).

Common to all: tests in culture

Blank or dashed fields: not listed here. Conditions beyond the fields shown may differ between rows. Inhibition is in % at the dose shown (toxicity tests: loss of growth or viability). ECn is the concentration giving n% inhibition of infection, replication or growth. A number after MIC or MFC names an inhibition level or a share of isolates.

SMILES	species	read-out	method	cells	tested at	value
O=C1N[C@@H]2C(c3cc4c(cc31)OCO4)[C@@H](O)[C@H](O)[C@@H](O)[C@H]2O	Encephalitozoon intestinalis	EC50		RK-13		0.2 µM
COC(=O)Nc1nc2ccc(C(=O)c3ccccc3)cc2[nH]1	Encephalitozoon intestinalis	inhibition		RK-13	0.01 µg/mL	64.8%
N#Cc1c(N2CCCCC2)nsc1-c1ccccc1	Encephalomyocarditis virus	EC50	plaque count	L929		>25 µg/mL
CO[C@H]1[C@@H](OC(=O)/C=C/C=C/C=C/C=C/C(=O)O)CC[C@@]2(CO2)[C@@H]1[C@@]1(C)O[C@@H]1CC=C(C)C	Encephalitozoon intestinalis	inhibition		RK-13	0.00001 µg/mL	33.2%
CCCSc1nsc(-c2ccccc2)c1C(=O)OC	Encephalomyocarditis virus	EC50	plaque count	L929		>50 µg/mL
CCOC(=O)Nc1cc2c(c(N)n1)N=C1c3ccccc3CCC1O2.Cl.Cl	Encephalitozoon intestinalis	inhibition		RK-13	10 µg/mL	61.4%
CO[C@H]1[C@@H](OC(=O)/C=C/C=C/C=C/C=C/C(=O)O)CC[C@@]2(CO2)[C@@H]1[C@@]1(C)O[C@@H]1CC=C(C)C	Encephalitozoon intestinalis	EC50				≥0.05 µM
CC(C)C[C@H](NC(=O)[C@@H](O)[C@H](N)Cc1ccc([N+](=O)[O-])cc1)C(=O)O	Encephalitozoon cuniculi	EC50				>20 µg/mL
N#CCSc1nsc(-c2ccccc2)c1C#N	Encephalomyocarditis virus	EC50	plaque count	L929		>10 µg/mL
CC(=O)Oc1ccccc1C(=O)Nc1ncc([N+](=O)[O-])s1	Encephalitozoon intestinalis	inhibition		RK-13	10 µg/mL	83.1%
c1ccc2[nH]c(-c3cscn3)nc2c1	Encephalitozoon intestinalis	EC50		E6		0.025 µg/mL
CC1CCc2cc(F)cc3c(=O)c(C(=O)O)cn1c23	Encephalitozoon intestinalis	MIC50				359 µM
CCCSc1nsc(-c2ccccc2)c1C(N)=O	Encephalomyocarditis virus	EC50	plaque count	L929		>30 µg/mL
CCOC(=O)Nc1cc2c(nc(-c3ccccc3)c3nnnn32)c(NC(c2ccccc2)c2ccccc2)n1	Encephalitozoon intestinalis	inhibition		RK-13	0.01 µg/mL	59.5%
COc1ccc(OC)c(Cc2cnc3nc(N)nc(N)c3c2C)c1	Encephalitozoon cuniculi	inhibition	cytopathic effect	MRC-5 fibroblasts	10 µg/mL	2%
CO[C@@H]1[C@@H](OC(N)=O)[C@@H](O)[C@H](Oc2ccc3c(O)c(NC(=O)c4ccc(O)c(CC=C(C)C)c4)c(=O)oc3c2C)OC1(C)C	Encephalitozoon intestinalis	MIC50				>100 µM
O=c1c2ccccc2[se]n1-c1cc([N+](=O)[O-])ccn1	Encephalomyocarditis virus	MIC				500 µg/mL
c1ccc2[nH]c(-c3cscn3)nc2c1	Encephalitozoon intestinalis	inhibition		RK-13	0.01 µg/mL	34.9%
CC(=O)NS(=O)(=O)c1ccc(NC(=O)CCC[Se][Se]CCCC(=O)Nc2ccc(S(=O)(=O)NC(C)=O)cc2)cc1	Encephalomyocarditis virus	MIC				100 µg/mL
CCCS(=O)c1ccc2nc(NC(=O)OC)[nH]c2c1	Encephalitozoon intestinalis	EC50		E6 HOST CELLS		>3 µg/mL
CN(C)c1ccc(O)c2c1C[C@H]1C[C@H]3[C@H](N(C)C)C(=O)C(C(N)=O)=C(O)[C@@]3(O)C(=O)C1=C2O	Encephalitozoon cuniculi	inhibition	cytopathic effect	MRC-5 fibroblasts	50 µg/mL	54%
COC(=O)Nc1nc2ccc(C(=O)c3cccs3)cc2[nH]1	Encephalitozoon intestinalis	EC50		E6 HOST CELLS		0.03 µg/mL
CCCNC(=O)Nc1ccccc1[Se][Se]c1ccccc1NC(=O)NCCC	Encephalomyocarditis virus	MIC				10 µg/mL
CCOC(=O)CSc1nsc(-c2ccccc2)c1C#N	Encephalomyocarditis virus	EC50	plaque count	L929		>200 µg/mL
CCc1nc(N)nc(N)c1-c1ccc(Cl)cc1	Encephalitozoon cuniculi	inhibition	cytopathic effect	MRC-5 fibroblasts	5 µg/mL	0%
CCCSc1ccc2nc(NC(=O)OC)[nH]c2c1	Encephalitozoon intestinalis	MIC				0.008 µg/mL
CO[C@@H]1[C@H](OC(=O)NC(=O)CCl)CC[C@]2(CO2)[C@H]1[C@@]1(C)O[C@@H]1CC=C(C)C	Encephalitozoon cuniculi	EC50				0.01 µg/mL
COC(=O)Nc1nc2ccccc2[nH]1	Encephalitozoon intestinalis	EC50		E6 HOST CELLS		>3 µg/mL
CO[C@@H]1[C@H](OC(=O)NC(=O)CCl)CC[C@]2(CO2)[C@H]1[C@@]1(C)O[C@@H]1CC=C(C)C	Encephalitozoon hellem	EC50		RK-13		0.001 µg/mL
O=S(=O)(Nc1ccccc1[Se][Se]c1ccccc1NS(=O)(=O)c1ccccc1)c1ccccc1	Encephalomyocarditis virus	MIC				200 µg/mL
CSc1nsc(-c2ccccc2)c1C#N	Encephalomyocarditis virus	EC50	plaque count	L929		10 µg/mL
CCCNC(=S)Nc1ccccc1[Se][Se]c1ccccc1NC(=S)NCCC	Encephalomyocarditis virus	MIC				>1000 µg/mL
O=c1c2cccnc2[se]n1N(c1ccccc1)c1cc(Cl)ccn1	Encephalomyocarditis virus	MIC				100 µg/mL
O=c1c2ccccc2[se]n1-c1ccccc1	Encephalomyocarditis virus	MIC				10 µg/mL
Cn1c([N+](=O)[O-])cnc1COC(N)=O	Encephalitozoon cuniculi	EC50				>5 µg/mL
O=c1c2cccnc2[se]n1-c1ccc(Cl)cc1	Encephalomyocarditis virus	MIC				500 µg/mL
CO[C@H]1[C@@H](OC(=O)/C=C/C=C/C=C/C=C/C(=O)O)CC[C@@]2(CO2)[C@@H]1[C@@]1(C)O[C@@H]1CC=C(C)C	Encephalitozoon cuniculi	EC50				0.00086 µg/mL
O=c1[nH][se]c2ccccc12	Encephalomyocarditis virus	MIC				0.4 µg/mL
CC1COc2c(N3CCN(C)CC3)c(F)cc3c(=O)c(C(=O)O)cn1c23	Encephalitozoon intestinalis	MIC50				2 µM
CCCSc1ccc2nc(NC(=O)OC)[nH]c2c1	Encephalitozoon intestinalis	EC50		E6 HOST CELLS		0.3 µg/mL
N#Cc1c(N2CCCC2)nsc1-c1ccccc1	Encephalomyocarditis virus	EC50	plaque count	L929		>7 µg/mL
C[n+]1cccc2c(=O)n(-c3ccccn3)[se]c21	Encephalomyocarditis virus	MIC				2 µg/mL
NC[C@@H]1O[C@H](O[C@H]2[C@@H](O)[C@H](O[C@@H]3[C@@H](O)[C@H](N)C[C@H](N)[C@H]3O[C@H]3O[C@H](CO)[C@@H](O)[C@H](O)[C@H]3N)O[C@@H]2CO)[C@H](N)[C@@H](O)[C@@H]1O	Encephalitozoon cuniculi	inhibition	cytopathic effect	MRC-5 fibroblasts	1000 µg/mL	1%
NS(=O)(=O)c1ccc(NC(=O)CCC[Se][Se]CCCC(=O)Nc2ccc(S(N)(=O)=O)cc2)cc1	Encephalomyocarditis virus	MIC				>1000 µg/mL
COc1c(N2CCNC(C)C2)c(F)cc2c(=O)c(C(=O)O)cn(C3CC3)c12	Encephalitozoon intestinalis	MIC50				85 µM
Cc1ncc([N+](=O)[O-])n1CCO	Encephalitozoon cuniculi	EC50				>5 µg/mL
O=C(Nc1ccccc1[Se][Se]c1ccccc1NC(=O)c1ccccc1)c1ccccc1	Encephalomyocarditis virus	MIC				>1000 µg/mL
CCCSc1ccc2nc(NC(=O)OC)[nH]c2c1	Encephalitozoon intestinalis	MIC50				0.011 µg/mL
Nc1[nH]c(=O)ncc1F	Encephalitozoon cuniculi	inhibition	cytopathic effect	MRC-5 fibroblasts	50 µg/mL	0%
C[n+]1cccc(-n2[se]c3ccccc3c2=O)c1	Encephalomyocarditis virus	MIC				20 µg/mL

Again, the opening 5 rows:

SMILES	species	read-out	method	cells	tested at	value
O=C1N[C@@H]2C(c3cc4c(cc31)OCO4)[C@@H](O)[C@H](O)[C@@H](O)[C@H]2O	Encephalitozoon intestinalis	EC50		RK-13		0.2 µM
COC(=O)Nc1nc2ccc(C(=O)c3ccccc3)cc2[nH]1	Encephalitozoon intestinalis	inhibition		RK-13	0.01 µg/mL	64.8%
N#Cc1c(N2CCCCC2)nsc1-c1ccccc1	Encephalomyocarditis virus	EC50	plaque count	L929		>25 µg/mL
CO[C@H]1[C@@H](OC(=O)/C=C/C=C/C=C/C=C/C(=O)O)CC[C@@]2(CO2)[C@@H]1[C@@]1(C)O[C@@H]1CC=C(C)C	Encephalitozoon intestinalis	inhibition		RK-13	0.00001 µg/mL	33.2%
CCCSc1nsc(-c2ccccc2)c1C(=O)OC	Encephalomyocarditis virus	EC50	plaque count	L929		>50 µg/mL